A mixed list of measured activities; the numbers were collected in NIAID ChemDB.

Shared fields: whole-cell or culture tests; species: Aspergillus fumigatus

Percent inhibition refers to the dose given; in toxicity tests it is the harm to the cells. Zone: diameter of growth inhibition. An empty or dashed field is not shown. Neighbouring rows are from separate reports. MIC50, MIC90 and the like: level of inhibition, or share of isolates inhibited.

smiles,changes,strain,read by,endpoint,dose,value
Cc1ccc(C(C)C)cc1,-,CECT2071,-,MLC,-,>20 µg/mL
CN(C)/C=C/C(=O)c1nn(-c2ccccc2)cc1-c1ccc([N+](=O)[O-])cc1,-,-,agar diffusion / agar,zone,5 mg/mL,9 mm
CCC(C)n1ncn(-c2ccc(N3CCN(c4ccc(OC[C@H]5CO[C@](Cn6cncn6)(c6ccc(Cl)cc6Cl)O5)cc4)CC3)cc2)c1=O,-,35 isolates,-,Geometric mean MFC,-,10.55 µg/mL
CCC(C)n1ncn(-c2ccc(N3CCN(c4ccc(OC[C@H]5CO[C@](Cn6cncn6)(c6ccc(Cl)cc6Cl)O5)cc4)CC3)cc2)c1=O,-,19 isolates,-,MFC90,-,2 µg/mL
CCCCCOc1ccc(-c2ccc(-c3ccc(C(=O)N[C@H]4C[C@@H](O)[C@@H](O)NC(=O)[C@@H]5[C@@H](O)[C@@H](C)CN5C(=O)[C@H]([C@H](C)O)NC(=O)[C@H]([C@H](O)[C@@H](O)c5ccc(O)cc5)NC(=O)[C@@H]5C[C@@H](O)CN5C(=O)[C@H]([C@H](C)O)NC4=O)cc3)cc2)cc1,-,94-46,-,MFC,-,>50 µg/mL
CCC(C)n1ncn(-c2ccc(N3CCN(c4ccc(OC[C@H]5CO[C@](Cn6cncn6)(c6ccc(Cl)cc6Cl)O5)cc4)CC3)cc2)c1=O,-,MRCM 32221,broth dilution / visual reading,MIC100,-,1 µg/mL
C[C@H]1[C@H](O)[C@@H](C)/C=C/C=C/C=C/C=C/C=C/C=C/C=C/[C@H](O[C@@H]2O[C@H](C)[C@@H](O)[C@H](N)[C@@H]2O)C[C@@H]2O[C@](O)(C[C@@H](O)C[C@@H](O)CC[C@H](O)[C@@H](O)C[C@@H](O)CC(=O)O[C@H]1C)C[C@H](O)[C@H]2C(=O)O,-,-,-,MLC50,-,1 µg/mL
C[C@H]1[C@H](O)[C@@H](C)/C=C/C=C/C=C/C=C/C=C/C=C/C=C/[C@H](O[C@@H]2O[C@H](C)[C@@H](O)[C@H](N)[C@@H]2O)C[C@@H]2O[C@](O)(C[C@@H](O)C[C@@H](O)CC[C@H](O)[C@@H](O)C[C@@H](O)CC(=O)O[C@H]1C)C[C@H](O)[C@H]2C(=O)O,-,94 isolates,-,MFC90,-,2 µg/mL
CCOC(=O)C1=NN(c2ccccc2)C2=Nc3nccc(-c4nn(-c5ccccc5)cc4-c4ccc([N+](=O)[O-])cc4)c3C(=O)C12,-,-,agar diffusion / agar,zone,2.5 mg/mL,14 mm
CCCCCOc1ccc(-c2ccc(-c3ccc(C(=O)N[C@H]4C[C@@H](O)[C@@H](O)NC(=O)[C@@H]5[C@@H](O)[C@@H](C)CN5C(=O)[C@H]([C@H](C)O)NC(=O)[C@H]([C@H](O)[C@@H](O)c5ccc(O)cc5)NC(=O)[C@@H]5C[C@@H](O)CN5C(=O)[C@H]([C@H](C)O)NC4=O)cc3)cc2)cc1,-,Isolate AF210,-,MFC,-,0.06 µg/mL
Cc1ccc(-n2cc(-c3ccc([N+](=O)[O-])cc3)c(-c3ccon3)n2)cc1,-,-,agar diffusion / agar,zone,1.25 mg/mL,2 mm
CCC(C)n1ncn(-c2ccc(N3CCN(c4ccc(OC[C@H]5CO[C@](Cn6cncn6)(c6ccc(Cl)cc6Cl)O5)cc4)CC3)cc2)c1=O,-,AF293,broth dilution,inhibition,8 µg/mL,99.76%
O=C(c1cn2cnnc2nn1)c1nn(-c2ccccc2)cc1-c1ccc([N+](=O)[O-])cc1,-,-,agar diffusion / agar,zone,1.25 mg/mL,3 mm
CC(C)C[C@H](N)C(=O)O,-,MRCM 32221,broth dilution,MFC100,-,>18000 µg/mL
Cc1ccc(-n2cc(-c3ccc([N+](=O)[O-])cc3)c(-c3ccnc4nncn34)n2)cc1,-,-,agar diffusion / agar,zone,2.5 mg/mL,11 mm
O=c1cc(CO)occ1O,mpkC deletion,-,agar,MIC99,-,>12800 µM

The first 2 rows once more:

smiles,changes,strain,read by,endpoint,dose,value
Cc1ccc(C(C)C)cc1,-,CECT2071,-,MLC,-,>20 µg/mL
CN(C)/C=C/C(=O)c1nn(-c2ccccc2)cc1-c1ccc([N+](=O)[O-])cc1,-,-,agar diffusion / agar,zone,5 mg/mL,9 mm